Measured values from several laboratories, pooled; numbers as filed in NIAID ChemDB.

All rows: whole-cell or culture tests; organism: HIV-1; cell line: CEM + CEM-SS; read-out: fold resistance

Rows are shuffled and stem from different studies. Fold resistance: result on the changed form divided by that on wild type.

smiles,strain,changes,read by,result
CCc1c(Sc2ccccn2)n(COCc2ccccc2)c(=O)[nH]c1=O,IIIB,RT-V108I,cytopathic effect / XTT,27
Cc1cn([C@H]2C[C@H](N=[N+]=[N-])[C@@H](CO)O2)c(=O)[nH]c1=O,NL4-3,RT-V179D,cytopathic effect / XTT,1.67
O=S1(c2ccccc2)=NC(=S)Nc2ccccc21,IIIB(A17(III)),RT-K103N Y181C,cytopathic effect / XTT,52
Cc1cn([C@H]2C[C@H](N=[N+]=[N-])[C@@H](CO)O2)c(=O)[nH]c1=O,NL4-3 1 (RT K101E),RT-K101E,XTT,2
CC1=C(C(=O)Nc2ccc(Cl)c(C(=O)OC(C)C)c2)SCCO1,IIIB(TIBO-R(I)),RT-A98G V108I,cytopathic effect / XTT,>333
C/C=C/CSc1cc(NC(=S)c2ccsc2C)ccc1Cl,Costatolide-resistant (RT Y188H),RT-Y188H,cytopathic effect / XTT,5
CC(C)=CCN1Cc2cccc3[nH]c(=S)n(c23)C[C@@H]1C,IIIB(A17(III)),RT-K103N Y181C,cytopathic effect / XTT,166
CC(C)=CCOc1cc(NC(=S)c2ccsc2C)ccc1Cl,Costatolide-resistant (RT L100I T139I),RT-L100I T139I,XTT,1.6
Cc1c(Sc2ccccc2)n(COCCO)c(=O)[nH]c1=O,IIIB,RT-Y181C,cytopathic effect / XTT,>6
CCCc1cc(=O)oc2c3c(c4c(c12)OC(C)(C)C=C4)O[C@@H](C)[C@H](C)[C@@H]3O,UC82-R (RT-Y181C),RT-Y181C,cytopathic effect / XTT,0.2
CCc1c(C(=O)c2cc(C)cc(C)c2)n(CC2CC=CC2)c(=O)[nH]c1=O,NL4-3,RT-V106I,cytopathic effect / XTT,0.3
Cc1ccnc2c1NC(=O)c1cccnc1N2C1CC1,Oxathiin carboxanilide-resistant RT L100I,RT-L100I,XTT,10
Cc1occc1C(=S)Nc1ccc(Cl)c(/C=N/OC(C)(C)C)c1,Calanolide A-resistant (RT T139I),RT-T139I,cytopathic effect / XTT,1.5
Cc1ccnc2c1NC(=O)c1cccnc1N2C1CC1,4XAZT/Y181C (RT D67N K70R Y181C T215Y K219Q),RT-D67N K70R Y181C T215Y K219Q,cytopathic effect / XTT,40
Cc1ccnc2c1NC(=O)c1cccnc1N2C1CC1,NL4-3 (RT V179D),RT-V179D,cytopathic effect / XTT,1.5
CCCc1cc(=O)oc2c3c(c4c(c12)OC(C)(C)C=C4)O[C@H](C)[C@@H](C)[C@@H]3O,IIIB(DPS-R(III)),RT-Y181C,cytopathic effect / XTT,0.1

A second listing of 2 rows from above:

| smiles | strain | changes | read by | result |
|---|---|---|---|---|
| CC(C)=CCN1Cc2cccc3[nH]c(=S)n(c23)C[C@@H]1C | IIIB(A17(III)) | RT-K103N Y181C | cytopathic effect / XTT | 166 |
| CCc1c(Sc2ccccn2)n(COCc2ccccc2)c(=O)[nH]c1=O | IIIB | RT-V108I | cytopathic effect / XTT | 27 |